Consider 26 compounds from PubChem BioAssay AID1899 (The Scripps Research Institute Molecular Screening Center, 2009).

SMILES strings stand for the structures. This is a selection; strong and weak results do not stand in their true shares. Activity calls are given as the source filed them.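 How the source made its calls: active means inhibition above the mean of all tested compounds plus 3 SD, set per screening campaign (cut at about 45% in these data); inactive means the rest.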

This assay concerns HCV core protein (residues 1-106) dimerization. Nature of the assay: blockers of core106 self-association – biochemical, TR-FRET, high-throughput, primary screen (AID 1899). The settings on record: TR-FRET GST/Flag-core106 dimerization, 1536-well; at 5 µM; stronger effect = higher value. Put shortly:
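assay system = GST-tagged and Flag-tagged HCV core protein residues 1-106 | controls = unlabelled core106 and no-GST-core106 wells | incubation = compound-protein-antibody incubation 4 h at 22.5 °C | probe or stimulus = Eu donor and XL665 acceptor anti-tag antibodies | read-out = % inhibition based on acceptor/donor emission ratio | signal = TR-FRET 671 and 617 nm emission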
In general, inhibition refers to the relative decrease from the control value, in per cent. Regarding `CP(=O)(Oc1ccccc1)OC(c1ccccc1)C(F)(F)F` (stereo unspecified), the inhibition is inactive: -3%.
The value for `CP(=O)(Nc1ccccn1)Oc1ccc(Cl)cc1` (stereo unspecified) was inactive: 4.88%; that for `CCOC(=O)c1ccc(NP(C)(=O)Oc2ccc(OC)cc2)cc1` (stereo unspecified) was inactive: 1.21%.
Then `O=[N+]([O-])c1cc([N+](=O)[O-])c(O)c([N+](=O)[O-])c1.c1ccc(Oc2ccncc2)cc1`, with inactive: -6.17%; and `CCOP(C)(=S)SCC(=O)NC(C)C(=O)O` (stereo unspecified), with inactive: -2.55%; and `CP(=O)(Nc1ccccc1Br)Oc1ccccc1` (stereo unspecified), with inactive: 3%.
Then `COc1ccccc1OP(C)(=O)Nc1ccccc1` (stereo unspecified), with inactive: -0.81%; and `CP(=S)(Nn1cnnc1)Oc1ccccc1` (stereo unspecified), with inactive: 2.71%; and `O=[N+]([O-])c1cc([N+](=O)[O-])c(Nc2nnnn2CCO)c([N+](=O)[O-])c1`, with inactive: -2.2%.
With `CC1=C2N=C(C=C3N=C(C(C)=C4[N-][C@@](C)([C@@H]5N=C1[C@](C)(CCC(=O)NC[C@@H](C)OP(=O)([O-])O[C@H]1[C@@H](O)[C@@H](n6cnc7cc(C)c(C)cc76)O[C@@H]1CO)[C@H]5CC(N)=O)[C@@](C)(CC(N)=O)[C@@H]4CCC(N)=O)[C@@](C)(CC(N)=O)[C@@H]3CCC(N)=O)C(C)(C)[C@@H]2CCC(N)=O.[C-]#N.[Co+3]`, the inhibition is inactive: -2.41%.
Then `CCOC(=O)C(CC)C1=NC(C)(C)Cc2ccccc21.O=[N+]([O-])c1cc([N+](=O)[O-])c(O)c([N+](=O)[O-])c1` (stereo unspecified), with inactive: 3.16%; and `CP(=O)(Nc1ccc(SC(F)(F)F)cc1)Oc1ccccc1` (stereo unspecified), with inactive: -4.39%.
Then `CCCOc1ccc(NP(C)(=O)Oc2ccc(Cl)cc2)cc1` (stereo unspecified), with inactive: 4.74%; and `COc1ccccc1OP(C)(=O)Nc1c(C)cccc1C` (stereo unspecified), with inactive: 9.14%.
The value for `CN1CCCCC1COC(=O)C1(O)c2ccccc2CCc2ccccc21` (stereo unspecified) was inactive: -2.32%; that for `O=[N+]([O-])c1cc([N+](=O)[O-])c(-n2nnc3ccccc32)c([N+](=O)[O-])c1` was inactive: -1.73%; that for `Cc1nc2ccc3ccccc3c2s1.O=[N+]([O-])c1cc([N+](=O)[O-])c(O)c([N+](=O)[O-])c1` was inactive: 4.42%.
For `O=[N+]([O-])c1cc([N+](=O)[O-])c(-c2cnn(-c3ccccc3)c2)c([N+](=O)[O-])c1`, the inhibition is inactive: 7.63%.
The value for `CCOC(=O)c1ccc(NP(C)(=O)Oc2cc(C)cc(C)c2)cc1` (stereo unspecified) was inactive: -6.84%.
Regarding `Cc1cc(C)cc(OP(C)(=O)Nc2ccc(C)cc2C)c1` (stereo unspecified), the inhibition is inactive: 2.44%.
Take `COc1ccccc1OP(C)(=O)Nc1cccc(Br)c1` (stereo unspecified): the inhibition was inactive: -3.71%.
The value for `Cc1ccc(C)c(NP(C)(=O)Oc2ccccc2)c1` (stereo unspecified) was inactive: 1.5%; that for `CP(=O)(Nc1cccc(Br)c1)Oc1ccccc1` (stereo unspecified) was inactive: -1%.
Then `Cc1cc(C)cc(OP(C)(=O)Nc2ccccn2)c1` (stereo unspecified), with inactive: -3.39%; and `O=C(O)c1cccc(Nc2c([N+](=O)[O-])cc([N+](=O)[O-])cc2[N+](=O)[O-])c1`, with inactive: 1.74%; and `CC1=NCCc2c1[nH]c1ccccc21.O=[N+]([O-])c1cc([N+](=O)[O-])c(O)c([N+](=O)[O-])c1`, with inactive: -1.09%.
